Measured values from several laboratories, pooled; numbers as filed in NIAID ChemDB.

Common to all: whole-cell or culture tests; species: Herpes simplex virus 2; read-out: EC50

Blank or dashed fields: not listed here. ECn is the concentration giving n% inhibition of infection, replication or growth. Neighbouring rows are from separate reports.

{"smiles": "C/C(=C\\Cn1cnc2c(=O)[nH]cnc21)CO", "cell line": "CCL18", "read by": "cytopathic effect", "value": ">100 µg/mL"}
{"smiles": "Nc1ccn(C(CF)CCCO)c(=O)n1", "strain or isolate": "G", "cell line": "ESM", "read by": "cytopathic effect", "value": ">400 µg/mL"}
{"smiles": "O=c1[nH]c(=O)n([C@H]2C[C@H](O)[C@@H](CO)O2)cc1/C=C/Br", "strain or isolate": "42-78", "cell line": "HELF", "read by": "plaque count", "value": "27 µM"}
{"smiles": "Cc1nc(N(C)C(=O)Cc2ccc(-c3ccccn3)cc2)sc1S(N)(=O)=O", "strain or isolate": "2 (G)", "cell line": "HEF", "read by": "plaque count", "value": "0.023 µM"}
{"smiles": "O=C(NCc1ccc(Cl)cc1)c1cn2c3c(cc(CN4CCOCC4)cc3c1=O)OC(c1cccnc1)C2", "strain or isolate": "13077 (ACV-resistant)", "cell line": "HFF", "read by": "plaque count", "value": "4.3 µM"}
{"smiles": "Nc1ncnc2c1ncn2C/C=C(/CO)c1ccccc1", "cell line": "CCL18", "read by": "cytopathic effect", "value": ">100 µg/mL"}
{"smiles": "Cc1cn([C@@H]2O[C@@H](CO)[C@H](O)[C@H]2O)c(=O)[nH]c1=O", "strain or isolate": "G", "cell line": "VERO B", "read by": "cytopathic effect", "value": ">1000 µM"}
{"smiles": "O=c1[nH]c(=O)n([C@H]2C[C@H](O)[C@@H](CO)O2)cc1/C=C/Br", "strain or isolate": "196", "cell line": "PRK", "read by": "cytopathic effect", "value": "70 µg/mL"}
{"smiles": "Cc1cn(C(CF)CCCO)c(=O)[nH]c1=O", "strain or isolate": "G", "cell line": "ESM", "read by": "cytopathic effect", "value": ">400 µg/mL"}
{"smiles": "Nc1nc2c(ncn2C[C@]2(CO)C[C@H]2CO)c(=O)[nH]1", "strain or isolate": "186", "cell line": "MRC-5", "read by": "plaque count", "value": "0.12 µg/mL"}
{"smiles": "Nc1ncnc2c1ncn2[C@H]1C[C@@H](O)[C@H](CO)O1", "strain or isolate": "G", "cell line": "VERO B", "read by": "cytopathic effect", "value": ">1000 µM"}
{"smiles": "Cn1cc(C(=O)NCc2ccc(Cl)cc2)c(=O)c2cc(CN3CCOCC3)ccc21", "strain or isolate": "L6191456 ACV resistant", "cell line": "HFF", "read by": "plaque count", "value": "5.5 µM"}
{"smiles": "Nc1nc2c(ncn2CC(CO)OCP(=O)(O)O)c(=O)[nH]1", "strain or isolate": "Curtis", "cell line": "WI-38", "read by": "plaque count", "value": "1 µM"}
{"smiles": "Cc1cccc(C)c1N(CC(=O)Nc1ccc(-c2ncon2)cc1)C(C)C1CCS(=O)(=O)CC1", "strain or isolate": "Genital isolate", "cell line": "Vero Cells + HEF cells", "read by": "plaque count", "value": "0.012 µM"}
{"smiles": "CC(=O)OC(C)[C@H]1CCC2C3CC4[C@H](C)C[C@@]5(CC[C@H](OC(C)=O)C[C@]45Cl)C3CC[C@@]21C", "strain or isolate": "G", "cell line": "BHK-21", "read by": "cytopathic effect", "value": "68.9 µM"}
{"smiles": "Nc1ncnc2c1ncn2[C@@H]1O[C@@H](CO)[C@H](O)[C@H]1O", "strain or isolate": "G", "cell line": "VERO B", "read by": "cytopathic effect", "value": ">1000 µM"}
{"smiles": "C=Cc1cn([C@@H]2O[C@H](CO)[C@@H](O)[C@@H]2O)c(=O)[nH]c1=O", "strain or isolate": "42-78", "cell line": "HELF", "read by": "plaque count", "value": "9 µM"}
{"smiles": "O=c1[nH]cnc2c1ncn2C/C=C(/CO)c1ccccc1", "cell line": "CCL18", "read by": "cytopathic effect", "value": ">100 µg/mL"}
{"smiles": "O=c1[nH]c(=O)n([C@@H]2O[C@H](CO)[C@@H](O)[C@@H]2O)cc1I", "strain or isolate": "42-78", "cell line": "HELF", "read by": "plaque count", "value": "100 µM"}
{"smiles": "O=c1[nH]c(=O)n([C@H]2C[C@H](O)[C@@H](CO)O2)cc1/C=C/Br", "strain or isolate": "MS", "cell line": "CCRF-HSV-B", "read by": "plaque count", "value": "62 µg/mL"}
{"smiles": "Nc1nc2c(ncn2COCCO)c(=O)[nH]1", "strain or isolate": "14875 MS2 (acyclovir-susceptible)", "cell line": "HFF", "read by": "cytopathic effect", "value": "1 µg/mL"}
{"smiles": "Nc1ncnc2c1ncn2C[C@@H](CO)OCP(=O)(O)O", "strain or isolate": "LYONS", "cell line": "PRK", "read by": "cytopathic effect", "value": "1 µg/mL"}
{"smiles": "O=c1[nH]c(=O)n([C@@H]2O[C@H](CO)[C@@H](O)[C@@H]2F)cc1CO", "strain or isolate": "G", "cell line": "VERO", "read by": "plaque count", "value": "2.6 µM"}
{"smiles": "Nc1nc2c(ncn2CC=C(CO)CO)c(=O)[nH]1", "cell line": "CCL18", "read by": "cytopathic effect", "value": "11.7 µg/mL"}
{"smiles": "CC[C@H](C)[C@H](N)[C@H](O)n1nc(C)c2c(Cl)c3cc(OC)ccc3nc21", "cell line": "FS-85", "read by": "plaque count", "value": "5 µg/mL"}
{"smiles": "Cc1cn([C@H]2C[C@H](O)[C@@H](CO)O2)c(=O)nc1N", "cell line": "HeLa", "read by": "virus yield", "value": "<125 µM"}
{"smiles": "Cc1cn([C@@H]2O[C@H](CO)[C@@H](O)[C@@H]2F)c(=O)[nH]c1=O", "strain or isolate": "G-FMAU-C1", "cell line": "VERO", "read by": "plaque count", "value": "8.5 µM"}
{"smiles": "Cc1cn(CCCC(O)CF)c(=O)[nH]c1=O", "strain or isolate": "G", "cell line": "ESM", "read by": "cytopathic effect", "value": ">400 µg/mL"}
{"smiles": "C=Cc1cn([C@H]2C[C@H](O)[C@@H](CO)O2)c(=O)[nH]c1=O", "strain or isolate": "42-78", "cell line": "HELF", "read by": "plaque count", "value": "9 µM"}
{"smiles": "Nc1ncnc2c1ncn2[C@@H]1C[C@H](CO)[C@@H](O)[C@@H]1O", "strain or isolate": "G-FAU-C2", "cell line": "VERO", "read by": "plaque count", "value": "24 µM"}
{"smiles": "O=c1[nH]c(=O)n([C@@H]2O[C@H](CO)[C@@H](O)[C@@H]2O)cc1/C=C/Br", "strain or isolate": "42-78", "cell line": "HELF", "read by": "plaque count", "value": "290 µM"}
{"smiles": "Nc1ccn([C@H]2C[C@H](O)[C@@H](CO)O2)c(=O)n1", "cell line": "HeLa", "read by": "virus yield", "value": "<5 µM"}
{"smiles": "O=c1[nH]c(=O)n([C@H]2O[C@@H](CO)[C@@H](O)[C@@H]2O)cc1C(F)(F)F", "strain or isolate": "42-78", "cell line": "HELF", "read by": "plaque count", "value": "72 µM"}
{"smiles": "CO[C@@H]1[C@@H](OC(N)=O)[C@@H](O)[C@H](Oc2ccc3c(O)c(NC(=O)c4ccc(O)c(CC=C(C)C)c4)c(=O)oc3c2C)OC1(C)C", "strain or isolate": "UW", "cell line": "HeLa", "read by": "cytopathic effect", "value": "25 µg/mL"}
{"smiles": "O=C(O)C(O)c1ccccc1", "strain or isolate": "G", "cell line": "CaSki", "read by": "plaque count", "value": "<1 µg/mL"}
{"smiles": "Nc1ccn([C@H]2O[C@@H](CO)[C@H](O)[C@H]2F)c(=O)n1", "strain or isolate": "G-FIAC-C1", "cell line": "VERO", "read by": "plaque count", "value": "3.3 µM"}

For reference, 4 entries again:

smiles	strain or isolate	cell line	read by	value
Cc1cn(CCCC(O)CF)c(=O)[nH]c1=O	G	ESM	cytopathic effect	>400 µg/mL
Nc1nc2c(ncn2COCCO)c(=O)[nH]1	14875 MS2 (acyclovir-susceptible)	HFF	cytopathic effect	1 µg/mL
Nc1nc2c(ncn2C[C@]2(CO)C[C@H]2CO)c(=O)[nH]1	186	MRC-5	plaque count	0.12 µg/mL
Nc1ncnc2c1ncn2C/C=C(/CO)c1ccccc1		CCL18	cytopathic effect	>100 µg/mL